## In-gel DMS probing of monomeric and dimeric HIV-1 RNA

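Randomly mutated transcripts starting with one, two or three G (1G, 2G, 3G), capped or uncapped, were folded for 30 min at 37 °C. High salt was 300 mM KCl and 5 mM MgCl2, low salt 40 mM KCl and 0.1 mM MgCl2; monomer and dimer were parted on a native gel. Gel slices were treated with 170 mM dimethyl sulfate for 15 min at 37 °C and read by mutational profiling against an ethanol control.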

Sequence of the HIV-1 NL4-3 5' RNA, positions 1 to 437, as numbered in the source:
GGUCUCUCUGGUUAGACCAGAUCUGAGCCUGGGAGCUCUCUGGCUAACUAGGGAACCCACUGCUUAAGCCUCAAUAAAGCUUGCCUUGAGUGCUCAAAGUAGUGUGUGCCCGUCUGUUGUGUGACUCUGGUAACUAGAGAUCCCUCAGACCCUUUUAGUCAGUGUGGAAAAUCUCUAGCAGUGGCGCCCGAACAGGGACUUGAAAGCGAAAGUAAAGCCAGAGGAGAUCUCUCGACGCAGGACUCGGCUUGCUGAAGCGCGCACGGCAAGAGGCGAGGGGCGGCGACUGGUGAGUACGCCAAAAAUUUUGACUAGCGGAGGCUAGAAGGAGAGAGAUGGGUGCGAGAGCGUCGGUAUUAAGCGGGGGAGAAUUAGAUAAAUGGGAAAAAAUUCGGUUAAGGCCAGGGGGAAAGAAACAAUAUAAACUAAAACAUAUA

Scale: normalised reactivity, A and C only; low values point to paired or protected bases, higher values to unpaired ones.
One numbering serves 1G, 2G and 3G.
A position is written with its base.

A19 (domain TAR) read 3G uncapped low-salt monomer 0.03; 2G capped low-salt dimer 0.03; 2G capped high-salt monomer 0.03; 2G capped high-salt dimer 0.03.
A21 (domain TAR) read 3G uncapped low-salt monomer 0.61; 2G capped low-salt dimer 0.54; 2G capped high-salt monomer 0.57; 2G capped high-salt dimer 0.51.
C23 (domain TAR) read 3G uncapped low-salt monomer 1.50; 2G capped low-salt dimer 1.16; 2G capped high-salt monomer 1.32; 2G capped high-salt dimer 1.18.
A26 (domain TAR) read 3G uncapped low-salt monomer 0.08; 2G capped low-salt dimer 0.13; 2G capped high-salt monomer 0.09; 2G capped high-salt dimer 0.10.
C28 (domain TAR) read 3G uncapped low-salt monomer 0.03; 2G capped low-salt dimer 0.03; 2G capped high-salt monomer 0.03; 2G capped high-salt dimer 0.03.
C29 (domain TAR) read 3G uncapped low-salt monomer 0.11; 2G capped low-salt dimer 0.09; 2G capped high-salt monomer 0.09; 2G capped high-salt dimer 0.08.
A34 (domain TAR) read 3G uncapped low-salt monomer 1.27; 2G capped low-salt dimer 1.02; 2G capped high-salt monomer 1.13; 2G capped high-salt dimer 1.03.
C36 (domain TAR) read 3G uncapped low-salt monomer 0.03; 2G capped low-salt dimer 0.03; 2G capped high-salt monomer 0.03; 2G capped high-salt dimer 0.03.
C38 (domain TAR) read 3G uncapped low-salt monomer 0.03; 2G capped low-salt dimer 0.03; 2G capped high-salt monomer 0.03; 2G capped high-salt dimer 0.03.
C40 (domain TAR) read 3G uncapped low-salt monomer 0.03; 2G capped low-salt dimer 0.03; 2G capped high-salt monomer 0.03; 2G capped high-salt dimer 0.03.
C44 (domain TAR) read 3G uncapped low-salt monomer 0.03; 2G capped low-salt dimer 0.03; 2G capped high-salt monomer 0.03; 2G capped high-salt dimer 0.03.
A46 (domain TAR) read 3G uncapped low-salt monomer 0.03; 2G capped low-salt dimer 0.05; 2G capped high-salt monomer 0.03; 2G capped high-salt dimer 0.03.
A47 (domain TAR) read 3G uncapped low-salt monomer 0.13; 2G capped low-salt dimer 0.15; 2G capped high-salt monomer 0.11; 2G capped high-salt dimer 0.13.
C48 (domain TAR) read 3G uncapped low-salt monomer 0.03; 2G capped low-salt dimer 0.05; 2G capped high-salt monomer 0.03; 2G capped high-salt dimer 0.03.
A50 (domain TAR) read 3G uncapped low-salt monomer 0.13; 2G capped low-salt dimer 0.15; 2G capped high-salt monomer 0.11; 2G capped high-salt dimer 0.13.
A54 (domain TAR) read 3G uncapped low-salt monomer 0.15; 2G capped low-salt dimer 0.17; 2G capped high-salt monomer 0.14; 2G capped high-salt dimer 0.16.
A55 (domain TAR) read 3G uncapped low-salt monomer 0.20; 2G capped low-salt dimer 0.24; 2G capped high-salt monomer 0.25; 2G capped high-salt dimer 0.25.
C56 (domain TAR) read 3G uncapped low-salt monomer 0.03; 2G capped low-salt dimer 0.03; 2G capped high-salt monomer 0.03; 2G capped high-salt dimer 0.03.
C57 (domain TAR) read 3G uncapped low-salt monomer 0.03; 2G capped low-salt dimer 0.03; 2G capped high-salt monomer 0.03; 2G capped high-salt dimer 0.03.
C58 (domain PolyA) read 3G uncapped low-salt monomer 0.03; 2G capped low-salt dimer 0.56; 2G capped high-salt monomer 0.96; 2G capped high-salt dimer 0.54.
A59 (domain PolyA) read 3G uncapped low-salt monomer 0.84; 2G capped low-salt dimer 0.37; 2G capped high-salt monomer 0.49; 2G capped high-salt dimer 0.34.
C60 (domain PolyA) read 3G uncapped low-salt monomer 0.79; 2G capped low-salt dimer 0.19; 2G capped high-salt monomer 0.36; 2G capped high-salt dimer 0.19.
C63 (domain PolyA) read 3G uncapped low-salt monomer 0.65; 2G capped low-salt dimer 0.12; 2G capped high-salt monomer 0.21; 2G capped high-salt dimer 0.11.
A66 (domain PolyA) read 3G uncapped low-salt monomer 0.84; 2G capped low-salt dimer 1.05; 2G capped high-salt monomer 1.05; 2G capped high-salt dimer 1.09.
A67 (domain PolyA) read 3G uncapped low-salt monomer 1.00; 2G capped low-salt dimer 0.58; 2G capped high-salt monomer 0.75; 2G capped high-salt dimer 0.57.
C69 (domain PolyA) read 3G uncapped low-salt monomer 0.07; 2G capped low-salt dimer 0.03; 2G capped high-salt monomer 0.03; 2G capped high-salt dimer 0.03.
C70 (domain PolyA) read 3G uncapped low-salt monomer 0.03; 2G capped low-salt dimer 0.03; 2G capped high-salt monomer 0.03; 2G capped high-salt dimer 0.03.
C72 (domain PolyA) read 3G uncapped low-salt monomer 0.10; 2G capped low-salt dimer 0.10; 2G capped high-salt monomer 0.08; 2G capped high-salt dimer 0.09.

The opening 3 entries, copied out:

A19 (domain TAR) gave 3G uncapped low-salt monomer 0.03; 2G capped low-salt dimer 0.03; 2G capped high-salt monomer 0.03; 2G capped high-salt dimer 0.03.
A21 (domain TAR) gave 3G uncapped low-salt monomer 0.61; 2G capped low-salt dimer 0.54; 2G capped high-salt monomer 0.57; 2G capped high-salt dimer 0.51.
C23 (domain TAR) gave 3G uncapped low-salt monomer 1.50; 2G capped low-salt dimer 1.16; 2G capped high-salt monomer 1.32; 2G capped high-salt dimer 1.18.

Values reported by Ye et al. 2022 (doi:10.1038/s41594-022-00746-2).